Record: PubChem BioAssay AID504761 (Drosophila RNAi Screening Center, 2011)

- Assay: 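Insect host genes that dengue virus relies on to spread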 (primary screen)
- System: D.Mel-2 cells from Drosophila
- Reagents: long dsRNA against Drosophila genes
- Conditions: infection with dengue virus type 2; dose and infection time not stated
- Read-out: 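Cells stained for dengue envelope protein and imaged; percent of infected cells per well on duplicate plates, ranked by infection, with stained nuclei counted for cell number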
- Scale: infection score: higher = more virus-infected cells
- Rule for the call: 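Very low infection ranking in both replicate wells (chance probability at most 0.065), then a retest showing infection dropped 1.5-fold or more at p below 0.05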
- Calls: active = confirmed: knock-down lowers infection; inactive = not picked or not confirmed
The deposit covers about 22,000 reagents; shown is a random part of those with a known target gene and a result. In the full data, 116 (0.52%) got an active call. 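Calls depend on retest data that are not deposited; infection was ranked per plate without normalising between plates; the unit of the infection score is not given.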 Reagents against one gene are numbered here. Not all columns of the deposit are shown. Not given: the amount of reagent, the time to read-out.

target,dsRNA no.,"infection score, replicate 1",call
CG31248,1,5.22,inactive
CG32091,1,0.26,inactive
CG5577,1,7.9,inactive
CG16984,1,4.62,inactive
CG16984,2,9.32,inactive
CG14321,1,3.53,inactive
CG14321,2,2.94,inactive

Ordered by “infection score, replicate 1” (lowest first): 3 of the entries above
target,dsRNA no.,"infection score, replicate 1",call
CG32091,1,0.26,inactive
CG16984,1,4.62,inactive
CG5577,1,7.9,inactive

Next records:
target,dsRNA no.,"infection score, replicate 1",call
CG4313,1,8.68,inactive
CG4313,2,2.69,inactive
CG7781,1,14.4,inactive
CG16800,1,14,inactive
CG16800,2,10.7,inactive
CG6574,1,1.58,inactive
CG14837,1,3.92,inactive
CG3734,1,2.13,inactive
CG3734,2,4.69,inactive
Rab3-GEF,1,5.22,inactive
Rab3-GEF,2,0.28,inactive
Rab3-GEF,3,9.3,inactive
CG9932,1,7.13,inactive
Pop1,1,31.2,inactive
CG12842 (retired record),1,18.3,inactive
CG12842 (retired record),2,9.13,inactive
